Laboratory results reported in patent US9481871B2, “Nucleic acid encoding a polpeptide having aminotransferase activity, vectors and host cells comprising the nucleic acid” (KANEKA CORPORATION, priority 2010, dated 2016).

Test: Optimum pH of transamination activity
Assay type: biochemical

B1: TAT: polypeptide having transamination activity from Arthrobacter sp. KNK04-25; amino acid sequence SEQ ID NO: 1 (protein, listed as Arthrobacter sp.)
chain: MSAITLESSLATFTRRFDVSAKLTELGKEVVPGGYSRNSFNFGPHAIYVESGDGAYISTVEGHRLLDLNNNFTVNVLGHNHPSVQRTLRGSIETGVSFGNPVALETELAQLLVERIPSIERVQFSCSASESCMSAVRVARAFTGRTKIAKFEGGYHGFTDPLQVSWHPDHDGDCGPDDAPKAIPDSGGIPAEDVANVVVLTQNDGEGTERILRAHASEIACVIVELESASGGLVTLEQDYVESLRELTSELGIVLIFDETVTLRAGYQGMQGDYGVAPDLTVMGKIIGGGFPLGAVGGSAEIMSVLESGLVSISGTHHGHKIALAAGISTMRELTQGAFDRLNGMATRVMEELNDWSSQRGSSFAVYGKGISHLAYGFMREPGLSIRTHRDYWRNFDGTGTQICSLELANRGFFPVARGDFSLSLPMSDDDITAFVETTKEIVTGIES
For B1, the “pH at which transamination activity was the highest” value (pH 4.0 to 10 tested) was 7 and the “pHs at which transamination activity of 70 or more was confirmed” value (relative to activity of 100 at pH 7.0) was “pH 7.0 and pH 8.0”.
